Measurements taken from patent publication US10039816B2, “Siderophore-based immunization against gram-negative bacteria” (Massachusetts Institute of Technology, priority 2014, dated 2018).

Tested on: intestinal microbiota
Assay: Microbiota analysis (16S rDNA, Illumina MiSeq) of colon content of immunized mice
Format: in vivo
Conditions: before infection

| Substance | effect of immunization on composition of the microbiota |
| --- | --- |
| CTB-Ent | did not alter the composition of the microbiota |
| Cholera toxin B subunit [CTB, reference compound] | did not alter the composition of the microbiota |
